HIV-1 5' UTR: effect of mutations on RNA dimer formation

The measurements come from Ye et al. 2022 (doi:10.1038/s41594-022-00746-2).

The 5' region of HIV-1 NL4-3 RNA (positions 1-437):
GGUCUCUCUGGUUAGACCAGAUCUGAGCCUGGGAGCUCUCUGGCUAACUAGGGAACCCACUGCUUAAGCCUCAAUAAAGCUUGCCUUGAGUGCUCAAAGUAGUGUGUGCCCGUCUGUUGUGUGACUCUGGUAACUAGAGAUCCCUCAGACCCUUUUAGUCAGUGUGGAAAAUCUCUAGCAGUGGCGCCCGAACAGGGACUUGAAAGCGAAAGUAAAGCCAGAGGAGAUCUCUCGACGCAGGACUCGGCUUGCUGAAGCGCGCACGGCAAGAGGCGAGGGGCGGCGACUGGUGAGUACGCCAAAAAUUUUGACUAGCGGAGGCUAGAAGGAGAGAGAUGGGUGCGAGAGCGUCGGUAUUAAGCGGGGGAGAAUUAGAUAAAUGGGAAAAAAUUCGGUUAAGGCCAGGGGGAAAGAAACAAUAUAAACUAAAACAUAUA

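Randomly mutated transcripts starting with one, two or three G (1G, 2G, 3G), capped or uncapped, were folded for 30 min at 37 °C. Monomer and dimer bands were cut from native gels after folding in high salt (300 mM KCl, 5 mM MgCl2) or low salt (40 mM KCl, 0.1 mM MgCl2). Kdimer compares mutation frequencies in monomer and dimer, corrected for sequencing errors.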

Values are log2 Kdimer, the median over the changes at each position: higher means that changes there hinder dimer formation, below 0 that they favour it.
One numbering serves 1G, 2G and 3G.
A position is written with its base where known.
Bases beyond 437 are not listed in the source.

With A424 the assay gave 2G uncapped high-salt 0.05; 1G capped low-salt 0.08; 3G capped high-salt 0.02; 1G capped high-salt -0.04. For A425 the result was 2G uncapped high-salt 0.14; 1G capped low-salt -0.01; 3G capped high-salt 0.13; 1G capped high-salt -0.05. C426 read 2G uncapped high-salt 0.04; 1G capped low-salt -0.05; 3G capped high-salt -0.09; 1G capped high-salt 0.12. For U427 the result was 2G uncapped high-salt 0.07; 1G capped low-salt 0.06; 3G capped high-salt 0.06; 1G capped high-salt -0.02. With A428 the assay gave 2G uncapped high-salt 0.03; 1G capped low-salt 0.15; 3G capped high-salt 0.01; 1G capped high-salt -0.03. For A429 the result was 2G uncapped high-salt 0.04; 1G capped low-salt 0.01; 3G capped high-salt 0.15; 1G capped high-salt 0.01. With A430 the assay gave 2G uncapped high-salt 0.11; 1G capped low-salt -0.01; 3G capped high-salt -0.05; 1G capped high-salt -0.03. A431 read 2G uncapped high-salt 0.10; 1G capped low-salt -0.08; 3G capped high-salt 0.11; 1G capped high-salt -0.01.

With C432 the assay gave 2G uncapped high-salt 0.13; 1G capped low-salt 0.03; 3G capped high-salt 0.22; 1G capped high-salt 0.00. For A433 the result was 2G uncapped high-salt 0.00; 1G capped low-salt -0.10; 3G capped high-salt -0.02; 1G capped high-salt 0.08. U434 gave 2G uncapped high-salt -0.03; 1G capped low-salt 0.13; 3G capped high-salt -0.17; 1G capped high-salt -0.13. With A435 the assay gave 2G uncapped high-salt -0.02; 1G capped low-salt -0.03; 3G capped high-salt -0.04; 1G capped high-salt 0.08. With U436 the assay gave 2G uncapped high-salt -0.10; 1G capped low-salt 0.03; 3G capped high-salt 0.00; 1G capped high-salt 0.06. For A437 the result was 2G uncapped high-salt 0.06; 1G capped low-salt 0.00; 3G capped high-salt 0.16; 1G capped high-salt 0.06. position 438 gave 2G uncapped high-salt 0.01; 1G capped low-salt -0.02; 3G capped high-salt -0.01; 1G capped high-salt 0.11. position 439 read 2G uncapped high-salt 0.00; 1G capped low-salt -0.03; 3G capped high-salt 0.05; 1G capped high-salt 0.10.

For position 440 the result was 2G uncapped high-salt 0.04; 1G capped low-salt -0.12; 3G capped high-salt 0.13; 1G capped high-salt 0.06. For position 441 the result was 2G uncapped high-salt 0.06; 1G capped low-salt -0.10; 3G capped high-salt -0.02; 1G capped high-salt 0.11. position 442 gave 2G uncapped high-salt 0.02; 1G capped low-salt -0.07; 3G capped high-salt 0.05; 1G capped high-salt -0.15. For position 443 the result was 2G uncapped high-salt 0.17; 1G capped low-salt 0.06; 3G capped high-salt 0.13; 1G capped high-salt 0.05. For position 444 the result was 2G uncapped high-salt 0.13; 1G capped low-salt 0.07; 3G capped high-salt 0.23; 1G capped high-salt 0.13. With position 445 the assay gave 2G uncapped high-salt 0.03; 1G capped low-salt 0.08; 3G capped high-salt 0.21; 1G capped high-salt 0.13. position 446 gave 2G uncapped high-salt 0.10; 1G capped low-salt -0.01; 3G capped high-salt 0.19; 1G capped high-salt 0.18. position 447 gave 2G uncapped high-salt -0.06; 1G capped low-salt -0.05; 3G capped high-salt 0.01; 1G capped high-salt 0.11.

position 448 read 2G uncapped high-salt -0.08; 1G capped low-salt 0.01; 3G capped high-salt 0.07; 1G capped high-salt 0.20. position 449 read 2G uncapped high-salt 0.04; 1G capped low-salt 0.05; 3G capped high-salt -0.02; 1G capped high-salt 0.12. With position 450 the assay gave 2G uncapped high-salt 0.09; 1G capped low-salt 0.01; 3G capped high-salt 0.13; 1G capped high-salt 0.13. With position 451 the assay gave 2G uncapped high-salt 0.03; 1G capped low-salt 0.01; 3G capped high-salt 0.16; 1G capped high-salt 0.15. position 452 read 2G uncapped high-salt 0.05; 1G capped low-salt -0.02; 3G capped high-salt -0.05; 1G capped high-salt -0.13. position 453 gave 2G uncapped high-salt 0.03; 1G capped low-salt 0.04; 3G capped high-salt -0.05; 1G capped high-salt -0.20. For position 454 the result was 2G uncapped high-salt 0.04; 1G capped low-salt -0.09; 3G capped high-salt 0.01; 1G capped high-salt -0.09. position 455 gave 2G uncapped high-salt 0.01; 1G capped low-salt -0.06; 3G capped high-salt 0.05; 1G capped high-salt 0.02.

For position 456 the result was 2G uncapped high-salt 0.03; 1G capped low-salt -0.07; 3G capped high-salt -0.08; 1G capped high-salt 0.00. position 457 read 2G uncapped high-salt 0.04; 1G capped low-salt 0.02; 3G capped high-salt -0.01; 1G capped high-salt -0.16.

The last 4 entries again:

| position | domain | 2G uncapped high-salt | 1G capped low-salt | 3G capped high-salt | 1G capped high-salt |
|---|---|---|---|---|---|
| 454 | none | 0.04 | -0.09 | 0.01 | -0.09 |
| 455 | none | 0.01 | -0.06 | 0.05 | 0.02 |
| 456 | none | 0.03 | -0.07 | -0.08 | 0.00 |
| 457 | none | 0.04 | 0.02 | -0.01 | -0.16 |